{"sequences": {"note": "Protein sequences, listed by entry. Tags and fused reporters are not part of them.", "UniProt P0A9M0, whole entry": "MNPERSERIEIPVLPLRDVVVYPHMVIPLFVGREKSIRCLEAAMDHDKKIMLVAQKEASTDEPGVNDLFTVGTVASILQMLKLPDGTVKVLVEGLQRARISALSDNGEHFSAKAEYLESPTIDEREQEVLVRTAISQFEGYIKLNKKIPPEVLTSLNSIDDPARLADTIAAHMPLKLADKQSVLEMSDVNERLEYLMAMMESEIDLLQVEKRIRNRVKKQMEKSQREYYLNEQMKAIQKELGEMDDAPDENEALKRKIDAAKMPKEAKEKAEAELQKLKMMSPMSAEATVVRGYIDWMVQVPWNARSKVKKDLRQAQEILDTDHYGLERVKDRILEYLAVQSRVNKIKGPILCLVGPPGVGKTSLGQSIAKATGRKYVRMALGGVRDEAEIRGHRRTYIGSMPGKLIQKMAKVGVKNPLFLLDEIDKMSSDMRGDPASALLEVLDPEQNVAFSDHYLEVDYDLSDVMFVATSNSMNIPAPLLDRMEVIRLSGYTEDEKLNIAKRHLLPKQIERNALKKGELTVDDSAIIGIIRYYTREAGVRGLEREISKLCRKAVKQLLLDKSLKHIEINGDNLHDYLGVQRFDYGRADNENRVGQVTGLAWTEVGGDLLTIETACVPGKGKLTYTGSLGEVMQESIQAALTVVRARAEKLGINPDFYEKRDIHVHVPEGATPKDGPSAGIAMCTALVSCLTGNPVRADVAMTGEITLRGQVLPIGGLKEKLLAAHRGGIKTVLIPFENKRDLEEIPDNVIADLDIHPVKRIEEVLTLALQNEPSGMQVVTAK"}, "source": "PubChem BioAssay AID602123", "about": "(The Scripps Research Institute Molecular Screening Center, 2011)", "note": "The entries are a selection whose mix differs from that of the whole data set. Calls of active or inactive are those of the source. No stated cut-off is given here; in the data, active means inhibition above about 13% (passing the limit was not always enough); inactive means the rest.", "data": [{"target": "Lon protease (Escherichia coli (strain K12)) (UniProt P0A9M0)", "experiment": "inhibitors of E. coli Lon protease, primary screen, biochemical, fluorescence polarization (AID 602123);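 further: 0% = enzyme with probe and DMSO and 100% = no enzyme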", "settings": "purified E. coli Lon protease, at 7.94 µM, hits give high values", "values": [{"smiles": "O=C(OC1CN2CCC1CC2)C1c2ccccc2Oc2ccccc21", "note": "(configuration not stated)", "inhibition": "inactive: 9.46%"}, {"smiles": "CCCCn1nnnc1C(c1ccc(OC)cc1)N1CCC(n2c(=O)[nH]c3ccccc32)CC1", "note": "(configuration not stated)", "inhibition": "inactive: -5.86%"}, {"smiles": "CCOC(=O)N1CCC(Nc2ccc(OC)cc2)CC1", "inhibition": "inactive: 3.35%"}, {"smiles": "Cc1cc(C)cc(N(C(=O)c2ccccc2)C2CCN(C(=O)OC(C)(C)C)CC2)c1", "inhibition": "inactive: -10.1%"}, {"smiles": "O=C(NCC1(N2CCCCC2)CCCCC1)c1ccc(Cl)nc1", "inhibition": "inactive: -9.01%"}, {"smiles": "O=c1[nH]c2ccccc2n1C1CCN(C(c2ccccc2OC(F)(F)F)c2nnnn2C2CCCCC2)CC1", "note": "(configuration not stated)", "inhibition": "inactive: -7.37%"}, {"smiles": "O=C(NCC1(N2CCOCC2)CCCCC1)c1cc2ccccc2o1", "inhibition": "inactive: 1.3%"}, {"smiles": "CCOC(=O)N1CCC(Nc2ccc(F)cc2)CC1", "inhibition": "inactive: -3.93%"}, {"smiles": "COc1ccc(NC2CCN(CCc3ccccc3)CC2)c(OC)c1", "inhibition": "inactive: 1.36%"}, {"smiles": "CCCCOc1ccc(C(=O)NCC2(N3CCOCC3)CCCCC2)cc1", "inhibition": "inactive: -0.08%"}, {"smiles": "O=P1(N(CCCl)CCCl)SCCCS1", "inhibition": "inactive: -3.84%"}, {"smiles": "CCCCn1nnnc1C(c1cc2ccccc2o1)N1CCC(n2c(=O)[nH]c3ccccc32)CC1", "note": "(configuration not stated)", "inhibition": "inactive: -16.1%"}, {"smiles": "O=C(NCC1(N2CCCCC2)CCCCC1)c1ccc(F)cc1", "inhibition": "inactive: 9.29%"}, {"smiles": "O=C1CCN(Cc2ccccc2)CC1", "inhibition": "inactive: -12.4%"}, {"smiles": "CC(C)(C)n1nnnc1C(c1ccccc1)N1CCC(n2c(=O)[nH]c3ccccc32)CC1", "note": "(configuration not stated)", "inhibition": "inactive: -9.66%"}, {"smiles": "CCOc1ccc(C)cc1CN(CCCl)CCCl", "inhibition": "inactive: -1.32%"}, {"smiles": "CCOC(=O)N1CCC(Nc2cccc(C)c2)CC1", "inhibition": "inactive: -0.21%"}, {"smiles": "COc1cc(C(=O)NCC2(N(C)C)CCCCC2)ccc1OC(F)F", "inhibition": "inactive: 0.79%"}, {"smiles": "O=c1[nH]c2ccccc2n1C1CCN(C(c2cccc3ccccc23)c2nnnn2C2CCCC2)CC1", "note": "(configuration not stated)", "inhibition": "inactive: -8.26%"}, {"smiles": "O=c1[nH]c2ccccc2n1C1CCN(C(c2ccccc2)c2nnnn2C2CCCCC2)CC1", "note": "(configuration not stated)", "inhibition": "inactive: -6.22%"}, {"smiles": "O=c1[nH]c2ccccc2n1C1CCN(C(c2ccccc2OC(F)(F)F)c2nnnn2C2CCCC2)CC1", "note": "(configuration not stated)", "inhibition": "inactive: 3.36%"}, {"smiles": "N#CC1(Nc2ccccc2)CCN(CCc2ccccc2)CC1", "inhibition": "inactive: 1.94%"}, {"smiles": "CCN1CCC(Nc2ccc(Cl)cc2)CC1", "inhibition": "inactive: 3.66%"}, {"smiles": "CSc1ccc(C(=O)NCC2(N3CCOCC3)CCCCC2)cc1", "inhibition": "inactive: 4.03%"}, {"smiles": "O=C(NCC1(N2CCCCC2)CCCCC1)c1cccc([N+](=O)[O-])c1", "inhibition": "inactive: -9.63%"}, {"smiles": "O=C(NCC1(N2CCCCC2)CCCCC1)c1ccc(OC(F)F)cc1", "inhibition": "inactive: -10.9%"}, {"smiles": "CC(C)(C)n1nnnc1C(c1ccccc1OC(F)(F)F)N1CCC(n2c(=O)[nH]c3ccccc32)CC1", "note": "(configuration not stated)", "inhibition": "inactive: -5.3%"}, {"smiles": "O=C(NCC1(N2CCOCC2)CCCCC1)c1cc(=O)[nH]c2ccccc12", "inhibition": "inactive: 0.22%"}, {"smiles": "COc1cc(C(=O)NCC2(N3CCCCC3)CCCCC2)ccc1OC(F)F", "inhibition": "inactive: -12%"}, {"smiles": "CC(C)c1ccc(C(=O)NCC2(N3CCOCC3)CCCCC2)cc1", "inhibition": "inactive: -3.21%"}, {"smiles": "COc1ccc(NC2CCN(C(=O)OC(C)(C)C)CC2)cc1", "inhibition": "inactive: 1.31%"}, {"smiles": "CN1CCN(CCOC(=O)C(O)(c2ccccc2)c2ccccc2)CC1", "inhibition": "inactive: -15.1%"}, {"smiles": "CCCCn1nnnc1C(c1cccc2ccccc12)N1CCC(n2c(=O)[nH]c3ccccc32)CC1", "note": "(configuration not stated)", "inhibition": "inactive: -15.9%"}, {"smiles": "O=C(NCC1(N2CCCCC2)CCCCC1)c1cccc(C(F)(F)F)c1", "inhibition": "inactive: 6.24%"}, {"smiles": "CCC(c1nnnn1C(C)(C)C)N1CCC(n2c(=O)[nH]c3ccccc32)CC1", "note": "(configuration not stated)", "inhibition": "inactive: 1.74%"}, {"smiles": "O=C(NCC1(N2CCOCC2)CCCCC1)c1cc(F)c(F)cc1Cl", "inhibition": "inactive: -5.69%"}, {"smiles": "COc1cc(OC)c(C(=O)NCC2(N(C)C)CCCCC2)cc1OC", "inhibition": "inactive: 0.29%"}, {"smiles": "CCCCn1nnnc1C(c1ccnc2ccccc12)N1CCC(n2c(=O)[nH]c3ccccc32)CC1", "note": "(configuration not stated)", "inhibition": "inactive: 5.19%"}, {"smiles": "CC(C)c1ccc(NC2CCN(C(=O)OC(C)(C)C)CC2)cc1", "inhibition": "inactive: -1.31%"}, {"smiles": "CCCCn1nnnc1C(c1ccccc1OC(F)(F)F)N1CCC(n2c(=O)[nH]c3ccccc32)CC1", "note": "(configuration not stated)", "inhibition": "inactive: 7.89%"}, {"smiles": "CN(C)c1cccc(C(=O)NCC2(N3CCCCC3)CCCCC2)c1", "inhibition": "inactive: 4.35%"}, {"smiles": "COc1ccc(CN(CCCl)CCCl)cc1Cl", "inhibition": "inactive: -7.64%"}, {"smiles": "COc1ccc(C(c2nnnn2C2CCCC2)N2CCC(n3c(=O)[nH]c4ccccc43)CC2)cc1", "note": "(configuration not stated)", "inhibition": "inactive: -1.06%"}, {"smiles": "CCCOc1ccc(C(=O)NCC2(N(C)C)CCCCC2)cc1OC", "inhibition": "inactive: -0.34%"}, {"smiles": "Cc1ccc(C(=O)NCC2(N(C)C)CCCCC2)o1", "inhibition": "inactive: -14.3%"}, {"smiles": "CN1CCC(Nc2cccc(F)c2)CC1", "inhibition": "inactive: 1.42%"}, {"smiles": "O=C(NCC1(N2CCCCC2)CCCCC1)c1cncc(Br)c1", "inhibition": "inactive: 3.57%"}]}]}
